Source: US10203334B2, “Methods and compositions related to nucleic acid binding assays” (Nubad, LLC, priority 2012, dated 2019)
“And” between values parts separate entries of the source, which are not always exact repeats. Equal entries are not always repeated.

Tested on: E. coli ribosomal A-site oligonucleotide (SEQ ID No. 1)
Assay: 96-well F-neo displacement HTS on ribosomal A-site
Type: binding
Source text: [drawing 24] where FHNeo represents the protonated form of F-neo. F(-)Neo, upon binding to nucleic acids such as DNA or RNA, is destabilized by the nucleic acid backbone negative potential, shifting the equilibrium towards FH, making F-neo a weaker acid, raising the pKa, which is what we observe upon binding to the A-site. For the A-site targeted assay, we calculated the Z' factor (Z=1-3(2.7+2.8)/(414-267)=0.89. […] Provided is a detailed example for the development of a HTS by the displacement of a fluorescene-neomycin (F-neo (42a)) from rRNA A-site oligonucleotide (SEQ ID No. 1) using a 96 well plate format and a fluorescent plate reader. […] This HTS involves the displacement of a fluorescene-neomycin (F-neo (42a)) by potential RNA binding molecules in a 96 well plate format using a fluorescent plate reader. […] F-neo based RNA binding assays have been performed using a fluorescence spectrophotometer with a 96-well plate reader and results recorded in FIG. 4. […] Fo is defined as the baseline fluorescence intensity of the RNA/F-neo complex and F is the intensity with added drug. The difference between the fluorescence intensity baseline of F-neo/A-site complex and complex with added drug (F-Fo) indicates the extent of the competition of drug for the binding site, this allows the relative binding affinities of aminoglycosides to be established. […]

NCC1O[C@H](OC2C(O)C(OC3C(O)[C@H](N)CC(N)[C@H]3O[C@H]3OC(CN)[C@@H](O)C(O)C3N)O[C@@H]2CSCCNC(=O)CCSCC(=O)Nc2ccc(-c3c4ccc(=O)cc-4oc4cc(O)ccc34)c(C(=O)O)c2)C(N)C(O)[C@@H]1O (some centres unmarked) [F-neo (42a), Neomycin-Fluorescein Conjugate]
Z′-factor (0.3 μM neomycin to 0.1 μM E coli A-site/F-neo (42a) complex, 48 wells each, three consecutive days): 0.81 and 0.80 and 0.87 | Z′ factor (A-site targeted assay, Z=1-3(2.7+2.8)/(414-267)): 0.89
